Reference: publication PMC3458112

Amino acid sequences for entries named in this document (tags omitted). Residues count along the entry.
UniProt Q96724, 748-1032: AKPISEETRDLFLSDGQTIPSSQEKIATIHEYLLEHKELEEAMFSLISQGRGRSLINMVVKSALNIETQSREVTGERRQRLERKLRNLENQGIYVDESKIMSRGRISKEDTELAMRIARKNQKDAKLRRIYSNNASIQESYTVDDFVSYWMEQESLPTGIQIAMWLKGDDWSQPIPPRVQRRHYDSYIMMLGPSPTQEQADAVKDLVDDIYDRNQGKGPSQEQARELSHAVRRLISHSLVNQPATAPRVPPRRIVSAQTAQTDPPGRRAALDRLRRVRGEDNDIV
UniProt P61825, 756-1012: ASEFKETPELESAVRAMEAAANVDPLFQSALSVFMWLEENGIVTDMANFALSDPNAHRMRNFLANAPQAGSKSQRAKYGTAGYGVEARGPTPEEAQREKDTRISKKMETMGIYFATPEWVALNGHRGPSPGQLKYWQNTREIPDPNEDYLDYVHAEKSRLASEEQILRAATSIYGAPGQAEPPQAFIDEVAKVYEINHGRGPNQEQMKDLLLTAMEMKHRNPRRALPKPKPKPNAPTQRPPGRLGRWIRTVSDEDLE

Legend:
Assay in all cases: EMSA
[1] = biological target: DXV VP3 (Drosophila X virus) (UniProt Q96724); settings: VP3 70-1120 nM; 2-nt deoxy (dTdT) 3' overhangs; siRNA (2 nM): 10 mM Tris-HCl pH 8, 10 mM glycine, 2 mM DTT; genomic dsRNA (7.5 nM): 50 mM Tris-HCl pH 8, 150 mM NaCl, 0.5 ug/ul BSA; 30 min, room temperature, 20 ul; recombinant protein; protein details: 6xHis (pFastBacHtb); label: 32P 5' (T4 PNK)
[2] = biological target: IBDV VP3 (Infectious bursal disease virus) (UniProt P61825); settings: VP3 80-1200 nM, RNA 2 nM; 2-nt deoxy (dTdT) 3' overhangs; siRNA (2 nM): 10 mM Tris-HCl pH 8, 10 mM glycine, 2 mM DTT; genomic dsRNA (7.5 nM): 50 mM Tris-HCl pH 8, 150 mM NaCl, 0.5 ug/ul BSA; 30 min, room temperature, 20 ul; recombinant protein; protein details: 6xHis (pFastBac-type); label: 32P 5' (T4 PNK)
[3] = biological target: T1, IPNV VP3 (UniProt M9VR92); settings: VP3 80-1280 nM; 2-nt deoxy (dTdT) 3' overhangs; siRNA (2 nM): 10 mM Tris-HCl pH 8, 10 mM glycine, 2 mM DTT; genomic dsRNA (7.5 nM): 50 mM Tris-HCl pH 8, 150 mM NaCl, 0.5 ug/ul BSA; 30 min, room temperature, 20 ul; recombinant protein; protein details: 6xHis (pFastBacHtb); label: 32P 5' (T4 PNK)
T1 sequence (looked up, limits assumed): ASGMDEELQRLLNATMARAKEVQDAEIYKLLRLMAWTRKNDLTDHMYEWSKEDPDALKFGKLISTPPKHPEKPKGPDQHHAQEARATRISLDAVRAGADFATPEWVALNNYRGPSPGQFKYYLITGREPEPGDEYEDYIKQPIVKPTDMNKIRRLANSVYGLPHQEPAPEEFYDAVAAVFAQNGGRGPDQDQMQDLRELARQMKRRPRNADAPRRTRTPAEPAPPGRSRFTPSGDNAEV

Measured: binding result

CUUACGCGAGUCUUCGATT / UCGAAGUACUCAGCGUAAGTT [21-nt ds-siRNA]
binds: all assays above

Construct, isoform or probe ends are uncertain for at least one entry. For part of these data: Protein sequences can lack the tags named with them.
